Experimental data taken from article PMC12561106, “STOP Strategy to Inhibit P. falciparum and S. aureus Growth: Molecular Mechanism Studies on Purposely Designed Hybrids” (Antibiotics, 2025).

Tested on: WS1 cells (human-derived fibroblasts)
Assay: cell viability and proliferation assay (CCK-8/WST8)
Format: cell-based
Settings: for SI, Vero/D10: selectivity index CC50 / IC50 P. falciparum D10; for SI, Vero/W2: selectivity index CC50 / IC50 P. falciparum W2; for SI, Vero/S. aureus: selectivity index CC50 / IC50 S. aureus ATCC 25923
Protocol: WS1 cells (ATCC CRL-1502) were selected as a model system to investigate the effect of PTZ-quinoline hybrid compounds on human-derived fibroblasts. Briefly, cells were cultured in DMEM-High glucose supplemented with 10% fetal bovine serum (FBS) (Carlo Erba Reagents, Milan, Italy), 100 U/mL penicillin, and 100 µg/mL streptomycin at 37 °C with 5% CO2. For experiments, cells were seeded into 96-well plates at 0.7 × 10^4 cells/well, and incubated at 37 °C for 24 h. […] Cell viability was assessed by a WST8-based assay according to the manufacturer’s instructions (CCK-8, Cell Counting Kit-8, Dojindo Molecular Technologies, Rockville, MD, USA). After 48 h of incubation, culture medium was removed from each well, the monolayer was washed with PBS, and 100 µL of fresh medium containing 10 µL of CCK-8 solution was added. Following a 2 h incubation at 37 °C, the OD450nm was read, and data were expressed as the percentage of cell viability relative to the untreated controls. The CC50 was obtained on the corresponding dose–response curves generated as previously reported for IC50 values. Experiments were carried out in triplicate in three biological replicates.

Structure (SMILES) | SI, Vero/D10 | SI, Vero/W2 | SI, Vero/S. aureus
Clc1ccc2c(NCCCCCn3cc(CN4c5ccccc5Sc5ccccc54)nn3)ccnc2c1 [Compound 6a, N-(5-(4-((10H-phenothiazin-10-yl)methyl)-1H-1,2,3-triazol-1-yl)pentyl)-7-chloroquinolin-4-amine] | 148.1 | 128.6 | 
Clc1ccc2c(N3CCN(CCCCCN4c5ccccc5Sc5ccccc54)CC3)ccnc2c1 [Compound 3, 10-(5-(4-(7-chloroquinolin-4-yl)piperazin-1-yl)pentyl)-10H-phenothiazine] | >42.7 | >101.0 | 
Clc1ccc2c(NCCCn3cc(CN4c5ccccc5Sc5ccccc54)nn3)ccnc2c1 [Compound 5a, N-(3-(4-((10H-phenothiazin-10-yl)methyl)-1H-1,2,3-triazol-1-yl)propyl)-7-chloroquinolin-4-amine] | 40.3 | 67.7 | 1.8
Clc1ccc2c(N3CCN(CCCn4cc(CN5c6ccccc6Sc6ccccc65)nn4)CC3)ccnc2c1 [Compound 8, 10-((1-(3-(4-(7-chloroquinolin-4-yl)piperazin-1-yl)propyl)-1H-1,2,3-triazol-4-yl)methyl)-10H-phenothiazine] | >7.9 | >46.1 | 
Clc1ccc2c(NCCn3cc(CN4c5ccccc5Sc5ccccc54)nn3)ccnc2c1 [Compound 4a, N-(2-(4-((10H-phenothiazin-10-yl)methyl)-1H-1,2,3-triazol-1-yl)ethyl)-7-chloroquinolin-4-amine] | 126.1 | 89.6 | 2.4
Clc1ccc2c(N3CCN(CCCN4c5ccccc5Sc5ccccc54)CC3)ccnc2c1 [Compound 1, 10-(3-(4-(7-chloroquinolin-4-yl)piperazin-1-yl)propyl)-10H-phenothiazine] | >39.7 | >43.1 | 
Clc1ccc2c(c1)N(Cc1cn(CCNc3ccnc4cc(Cl)ccc34)nn1)c1ccccc1S2 [Compound 4b, 7-chloro-N-(2-(4-((2-chloro-10H-phenothiazin-10-yl)methyl)-1H-1,2,3-triazol-1-yl)ethyl)quinolin-4-amine] | 81.1 | 82.1 | 2.6
Clc1ccc2c(c1)N(Cc1cn(CCCNc3ccnc4cc(Cl)ccc34)nn1)c1ccccc1S2 [Compound 5b, 7-chloro-N-(3-(4-((2-chloro-10H-phenothiazin-10-yl)methyl)-1H-1,2,3-triazol-1-yl)propyl)quinolin-4-amine] | 151.6 | 163.9 | 4.4
Clc1ccc2c(c1)N(Cc1cn(CCCCCNc3ccnc4cc(Cl)ccc34)nn1)c1ccccc1S2 [Compound 6b, 7-chloro-N-(5-(4-((2-chloro-10H-phenothiazin-10-yl)methyl)-1H-1,2,3-triazol-1-yl)pentyl)quinolin-4-amine] | 57.0 | 186.6 | 1.4
